How the values were obtained:
FMDV 3D^pol = FMDV 3D^pol (Foot-and-mouth disease virus serotype O, UniProt P03305); experiment: cell-based; conditions: IC50 of FMDV 3Dpol activity (GFP expression)
BHK-21 cells = conditions: hamster
in vitro = conditions: hamster, Cytotoxicity (CC50)

Protein sequences, listed by entry. Tags and fused reporters are not part of them. Residues count along the entry.
UniProt P03305, 1863-2332 limits assumed: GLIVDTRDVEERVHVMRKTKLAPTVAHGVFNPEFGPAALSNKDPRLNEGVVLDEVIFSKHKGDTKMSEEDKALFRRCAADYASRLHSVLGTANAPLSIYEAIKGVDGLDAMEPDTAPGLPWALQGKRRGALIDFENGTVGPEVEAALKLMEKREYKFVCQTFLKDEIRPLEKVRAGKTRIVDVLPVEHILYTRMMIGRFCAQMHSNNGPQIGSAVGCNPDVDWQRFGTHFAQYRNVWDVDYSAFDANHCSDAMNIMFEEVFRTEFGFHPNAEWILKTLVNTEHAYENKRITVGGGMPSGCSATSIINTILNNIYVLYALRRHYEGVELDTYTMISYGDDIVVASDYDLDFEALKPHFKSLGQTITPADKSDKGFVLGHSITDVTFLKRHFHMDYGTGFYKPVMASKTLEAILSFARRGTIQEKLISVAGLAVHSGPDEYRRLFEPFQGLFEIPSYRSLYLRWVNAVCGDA

| Molecule | IC50 (FMDV 3D^pol) [µM] | CC50 (BHK-21 cells) [µM] | CC50 (in vitro) [µM] |
| --- | --- | --- | --- |
| CC1=CC(=O)[C@@H](O)[C@]2(C)[C@H]3[C@@H](O)[C@H](O)[C@@]4(C)OC[C@@]35[C@@H](C[C@@H]12)OC(=O)[C@H](O)[C@]54O [Bruceine D] | 0.37 ± 0.44 | 4.51 ± 0.68 | 4.51 ± 0.68 |
| Brusatol |  | 18.5 ± 1.27 |  |

— publication PMC11281344 (Viruses, 2024)
